Experimental findings from PubChem BioAssay AID504329 (Southern Research Specialized Biocontainment Screening …, 2011) are described below.

Each structure is given as a SMILES string. The list shows a part of the results. Potency and affinity values are given separately. Calls of active or inactive are those of the source. Rule as the data show it: inconclusive = inhibition above about 27% without an active follow-up result; inactive = below that.

A short description of this experiment: H1N1 influenza NS1A inhibitors, functional cell based assay (AID 504329). The following applies: percent inhibition, at 12.5 µM, hits give high values.
As to `CC(=O)Nc1ccc([As](=O)(O)O)c(O)c1`, the inhibition (commonly the drop in the measured response relative to a control, in per cent) was inactive: 4.11%.

As to `O=C(NC1CCS(=O)(=O)C1)NP(=S)(Oc1ccccc1)Oc1ccccc1` (centres undefined), the inhibition is inactive: -6.62%.

As to `CCNC(=S)/N=C(\N)N[N+](=O)[O-]`, the inhibition is inactive: -6.86%.

On to `O=P1(N(CCCl)CCCl)OCCC2CCCCN21` (centres undefined), for which the inhibition is inactive: 8.54%.

For the molecule `Cc1ccc(OP(=O)(Nc2ccccn2)Oc2ccc(C)cc2)cc1`, the inhibition was inactive: 0.12%.

For the molecule `CC(=O)NC(SC(=S)N(CC(C)C)CC(C)C)C(Cl)(Cl)Cl` (centres undefined), the inhibition was inactive: 24.4%.

On to `COC(=O)c1cc2c(s1)N=C(c1ccccc1)N(C)P2(=O)N1CCOCC1` (centres undefined), for which the inhibition was inactive: -13.8%.

`CCC(=O)N1C2C3N(C(=O)CC)C1C1N(C(=O)CC)C(C(N1C(=O)CC)N3C(=O)CC)N2C(=O)CC`: the inhibition is inactive: 2.35%.

As to `O=C(OC1CN2CCC1CC2)c1ccccc1` (centres undefined), the inhibition is inactive: -19.7%.

`O=c1c2cc([N+](=O)[O-])ccc2[nH]c2c([N+](=O)[O-])cc([N+](=O)[O-])cc12`: the inhibition is inactive: -7.38%.

`CN(C)C(=O)Oc1noc2ccccc12`: the inhibition was inactive: -12.8%.

As to `CC(NC(=O)COC(=O)C(O)(c1ccccc1)c1ccccc1)c1ccccc1` (centres undefined), the inhibition is inactive: -1.7%.

`Cc1ccccc1OP(=O)(Nc1ccccn1)Oc1ccccc1C`: the inhibition was inactive: -1.03%.

For the molecule `CS(=O)(=O)c1cc([N+](=O)[O-])c2no[n+]([O-])c2c1`, the inhibition is inactive: -8.59%.

Regarding `O=P(Nc1nccs1)(Oc1ccccc1)Oc1ccccc1`, the inhibition is inactive: -5.74%.

For `O=P(Nc1nccs1)(c1ccccc1)c1nc2ccccc2s1` (centres undefined), the inhibition is inactive: -14.5%.

In the case of `CCOP1(=S)c2c(C)nn(CCC#N)c2N=C(c2ccccc2F)N1C` (centres undefined), the inhibition is inactive: 1.42%.

Turning to `O=C(O)COc1ccc([As](=O)(O)O)cc1[N+](=O)[O-]`, the inhibition is inactive: -9.07%.

Regarding `Nc1ccccc1[As](=O)(O)c1ccccc1`, the inhibition was inactive: 12.8%.

`NC(=O)Nc1ccc([As](=O)(O)O)cc1`: the inhibition is inactive: -19.9%.

For `CN(C(=O)Cc1ccc(Cl)c(Cl)c1)[C@H]1CC[C@@]2(CCCO2)C[C@@H]1N1CCCC1`, the inhibition is inactive: -1.58%.

As to `O=[N+]([O-])c1ccc2c(c1)nnn2O`, the inhibition is inactive: 4.39%.

In the case of `CN(C)C(=O)c1cc([N+](=O)[O-])cc2c1-c1c(cc([N+](=O)[O-])cc1[N+](=O)[O-])C2=O`, the inhibition is inactive: -11.2%.

On to `CCOP1(=S)c2c(C)nn(CCC#N)c2N=C(c2ccc(F)cc2)N1C` (centres undefined), for which the inhibition is inactive: -8.29%.

With `CN(C(=O)Cc1ccccc1)[C@@H]1CC[C@]2(CCCO2)C[C@H]1N1CCCC1`, the inhibition is inactive: -0.16%.

Turning to `N#CCCN(C(=O)COC(=O)C(O)(c1ccccc1)c1ccccc1)c1ccc(F)cc1`, the inhibition is inactive: -1.15%.

`CS(=O)(=O)c1ccc(Cl)c(NC(=O)COC(=O)C(O)(c2ccccc2)c2ccccc2)c1`: the inhibition is inactive: -11.7%.

`O=[As](O)(O)c1cccnc1`: the inhibition was inactive: -15.9%.

Take `COc1cc(C(=O)NCC2(N3CCOCC3)CCCCC2)cc(Cl)c1OC(C)C`: the inhibition was inactive: 50.5%.

For `O=C(OC1CN2CCC1CC2)c1ccc(Cl)cc1` (centres undefined), the inhibition was inactive: -0.31%.

For the molecule `Cc1cccc(OCC(=O)OC2CN3CCC2CC3)c1` (centres undefined), the inhibition was inactive: 6.33%.

As to `O=[As](O)(c1cccc(O)c1)c1cccc(O)c1`, the inhibition is inactive: 12.5%.

Consider `CCCOP(=S)(Nc1nc(N)cc(=O)[nH]1)OCCC`, for which the inhibition is inactive: -6.77%.

Consider `Nc1cccc2c([As](=O)(O)O)cccc12`, for which the inhibition is inactive: -16.5%.

With `Cc1ccc(NCCc2c([N+](=O)[O-])cc([N+](=O)[O-])cc2[N+](=O)[O-])cc1`, the inhibition is inactive: 25.4%.

Consider `CCOP(=O)(Nc1cccc2ccccc12)OCC`, for which the inhibition was inactive: 11.9%.

Take `COc1cc(C2NCCC3(OCCO3)C2(C)C)cc(OC)c1OC` (centres undefined): the inhibition was inactive: 1.85%.

Regarding `CCOP(=O)(Nc1ccc(C)cn1)OCC`, the inhibition was inactive: -8.54%.

For the molecule `CCOP(=O)(NC(=NC(C)c1ccccc1)NC(C)c1ccccc1)OCC` (centres undefined), the inhibition was inactive: -13.7%.

On to `CCC1=CC2Cc3nc4ccc(Cl)cc4c(N)c3C(C1)C2` (centres undefined), for which the inhibition was inactive: 0.22%.

Regarding `O=P1(Nc2ccccn2)COc2ccccc2OC1`, the inhibition is inactive: 8.45%.

`CC(C)(C)C(=O)NC(Sc1ncccn1)C(Cl)(Cl)Cl` (centres undefined): the inhibition was inactive: -16.4%.

`Clc1n[nH]nc1-c1nn[nH][15n]1`: the inhibition is inactive: 1%.

As for `COc1ccccc1CNC(=O)COC(=O)C(O)(c1ccccc1)c1ccccc1`, the inhibition was inactive: -2.37%.

For the molecule `CC1(CBr)Cn2c(nc3ccccc3c2=O)S1` (centres undefined), the inhibition is inactive: -5.29%.

As for `CN(C(=O)Cc1ccc(Cl)c(Cl)c1)[C@@H]1CCCC[C@H]1N1CCCC1`, the inhibition is inactive: 3.09%.

For the molecule `CC(C)/C=N\N=C(\N)N[N+](=O)[O-]`, the inhibition is inactive: -7.94%.

For `Cc1ccc(C(=O)OC2CN3CCC2CC3)cc1` (centres undefined), the inhibition was inactive: -1.48%.

`CC1CCC(C(C)C)C(OP(=O)(Nc2ccccn2)c2ccccc2)C1` (centres undefined): the inhibition is inactive: 14.2%.

As to `Cc1nn(-c2ccccc2)c2c1P(=O)(N1CCOCC1)N(C)C(c1ccccc1)=N2` (centres undefined), the inhibition was inactive: -3.32%.

For the molecule `CCCC1OP(=O)(Nc2ccccc2)OCC1CC` (centres undefined), the inhibition is inactive: -1.35%.

Regarding `O=C(/C=C/c1ccccc1)OC1CN2CCC1CC2` (centres undefined), the inhibition is inactive: -21.9%.

Consider `CN(C)C1(CNC(=O)c2ccc(S(C)(=O)=O)cc2)CCCCC1`, for which the inhibition is inactive: -0.3%.

With `O=P1(Nc2ncccn2)COc2ccccc2OC1`, the inhibition was inactive: 1.56%.

Consider `O=[As](O)(c1cccs1)c1cccs1`, for which the inhibition was inactive: -1.71%.

`Cc1ccc(OCC(=O)OC2CN3CCC2CC3)cc1` (centres undefined): the inhibition is inactive: -0.03%.

In the case of `NS(=O)(=O)c1cccc(NC(=O)COC(=O)C(O)(c2ccccc2)c2ccccc2)c1`, the inhibition was inactive: -6.09%.

`O=P1(Nc2ccc(Br)cn2)COc2ccccc2OC1`: the inhibition was inactive: -14.1%.

Take `Nc1cccc([As](=O)(O)c2ccccc2)c1`: the inhibition is inactive: 14.3%.

As for `CC1CCNP(=O)(N(CCCl)CCCl)O1` (centres undefined), the inhibition is inactive: 0.03%.

Turning to `CCOC(=O)Nc1ccc([As](=O)(O)O)c(O)c1`, the inhibition is inactive: -9.66%.

In the case of `Cc1cc(SC(NC(=O)c2ccccc2)C(Cl)(Cl)Cl)nc(C(C)C)n1` (centres undefined), the inhibition is inactive: -7.32%.

With `CCCCOc1ccc(C(=O)NCC2(N3CCCCC3)CCCCC2)cc1OC`, the inhibition was inactive: 7.7%.

For the molecule `CCOC(=O)Nc1cccc([As](=O)(O)O)c1`, the inhibition was inactive: -13.3%.
